Results taken from patent publication US6369101B1, “Therapeutic method to treat herpes virus infection” (Regents of the University of Minnesota, priority 1999, dated 2002).

Key:
Assay type in all cases: cell-based
Conditions in all cases: CC50/EC50 ratio
Human Cytomegalovirus = experiment: CPE inhibition in stationary cells (visual), HCMV in HFF cells
Varicella-Zoster Virus = experiment: CPE inhibition in stationary cells (visual), VZV in HFF cells
Mouse Cytomegalovirus = experiment: CPE inhibition in stationary cells (visual), MCMV in MEF cells

Row | Molecule | SI (Human Cytomegalovirus) | SI (Varicella-Zoster Virus) | SI (Mouse Cytomegalovirus)
1 | C[C@H]1[C@H](C)CC[C@]2(CO)CC[C@]3(C)C(=CC[C@@H]4[C@@]5(C)CC[C@H](O)C(C)(C)[C@@H]5CC[C@]43C)[C@H]12 [Uvaol] | 0.0 | <2.4 | –
2 | C[C@@H]1O[C@@H](O[C@H]2[C@H](O[C@H]3CC[C@@]4(C)[C@@H](CC[C@]5(C)[C@@H]4CC=C4[C@@H]6CC(C)(C)CC[C@]6(C(=O)O)CC[C@]45C)[C@]3(C)CO)OC[C@H](O)[C@@H]2O)[C@H](O)[C@H](O)[C@H]1O [Hederine hydrate, α-hederin hydrate] | <2.5 | <2.9 | –
3 | C=C(C)[C@@H]1CC[C@]2(COP(=O)(O)O)CC[C@]3(C)[C@H](CC[C@@H]4[C@@]5(C)CC[C@H](OP(=O)(O)O)C(C)(C)[C@@H]5CC[C@]43C)[C@@H]12 [Betulin diphosphate] | – | 0.0 | –
4 | Nc1nc(O)c2ncn(COC(CO)CO)c2n1 [Ganciclovir ®, Ganciclovir, reference compound] | >1000 | – | 111.1
5 | Betulin succinate | 24.8 | <3.4 | <3.5
6 | C[C@H]1[C@H](C)CC[C@]2(C(=O)O)CC[C@]3(C)C(=CC[C@@H]4[C@@]5(C)CC[C@H](O)C(C)(C)[C@@H]5CC[C@]43C)[C@H]12 [Ursolic acid] | 0.0 | – | –
7 | C=C(C)[C@@H]1CC[C@]2(CO)CC[C@]3(C)[C@H](CC[C@@H]4[C@@]5(C)CC[C@H](O)C(C)(C)[C@@H]5CC[C@]43C)[C@@H]12 [Betulin, lup-20(29)-ene-3β, 28-diol, reference compound] | 4.9 | <3.5 | <4.0
